The experiment has as its target native Semliki Forest virus (SFV) virion. The experiment can be described thus: SPR. The settings on record: SFV immobilized to 2,500 RU on a CM5 chip by amine coupling; analyte 250-8000 nM; parent: 15.02 ± 3.49.

With LA5-Fc (from UniProt P98155-1) S204A, the Kd was found to be 15.9 µM.

(Values after paper PMC11661604.)
